Measured values from several laboratories, pooled; numbers as filed in NIAID ChemDB.

Shared fields: whole-cell or culture tests; species: Cryptococcus neoformans; measure: EC50

Blank or dashed fields: not listed here.

smiles	strain	method	conditions	value
OC(Cn1cncn1)(Cn1cncn1)c1ccc(F)cc1F	Var. gattii (isolate 54713)	colony count		<1 µg/mL
O/N=C/c1ccc[n+](Cc2cc(C[n+]3cccc(/C=N/O)c3)on2)c1.[Br-].[Br-]		broth dilution		>20 µg/mL
COc1ccccc1C1SCCC(=O)N1C(Cc1ccccc1)C(=O)O		broth dilution		43.28 µM
C[n+]1c2ccccc2cc2c1c1ccccc1n2CCCCCc1ccccc1	ATCC 90113			15 µg/mL
COc1cc2ccnc3c2c(c1OC(=O)c1cc(F)ccc1F)N(C)C=C3				>15 µg/mL
Brc1ccc2[nH+]c3c4ccccc4n(CCCCCC4CCCCC4)c3cc2c1	ATCC 90113			>50 µg/mL
S=C(S)n1nnc2ccccc21		broth dilution / absorbance	48 h	>50 µg/mL
COc1ccc2sc3cc4ccccc4[n+](C)c3c2c1	ATCC 90113	broth dilution		>20 µg/mL
CN(c1ccccc1)c1cc2ccccc2[n+](C)c1.[I-]	ATCC 90113	resazurin		>20 µg/mL
C=C(C)[C@@H]1CC[C@]2(C(=O)O)CC[C@]3(C)C(CCC4[C@@]5(C)C[C@@H](O)[C@H](O)C(C)(C)C5[C@@H](O)C[C@]43C)C12				20 µg/mL
CC(C)=CCc1c(O)c(C=O)c(O)c(C(=O)/C(C)=C/O)c1O				>20 µg/mL
CC(C)CC(C(=O)O)N1C(=O)C(C)SC1c1ccccc1		broth dilution		78.32 µM
Cn1c2ccccc2c2c1cc1ccccc1[n+]2C	ATCC 90113			6.3 µg/mL
C[C@@H]1CCC2(OC1)OC1CC3C4C[C@H](O)[C@H]5C[C@@H](O)CC[C@]5(C)C4CC(=O)[C@]3(C)C1[C@@H]2C	ATCC 90113			4.5 µg/mL
CN(c1cccc(Cl)c1)c1cc2ccccc2[n+](C)c1.[I-]	ATCC 90113	resazurin		>20 µg/mL
CC1=CCC[C@@H]2[C@@](C)(CC/C(C)=C/Cn3c[n+](C)c4ncnc(NO)c43)[C@H](C)CC[C@@]12C	ATCC 90113	resazurin		4.96 µg/mL
C1CCC(C[C@H]2CN3C(=NC[C@@H]3C3CCCCC3)N2CCC23CC4CC(CC(C4)C2)C3)CC1	ATCC 32045			15 µg/mL
O=C(O)CN1C(=O)CCSC1c1ccccn1		broth dilution		30.27 µM
COc1cc(NC(C)CCCN)c2nc(C(C)(C)C)ccc2c1Oc1cccc(C(F)(F)F)c1				1.5 µg/mL
CC(C)(C)C1CCC(CN2C3=NC[C@@H](CC4CCCCC4)N3C[C@@H]2CC2CCCCC2)CC1	ATCC 32045			5.5 µg/mL
COc1cc2ccnc3c2c(c1OC(=O)c1ccc(C(C)(C)C)cc1)N(C)C=C3				1.5 µg/mL
CC(C)(C)C1CCC(CN2C3=NC[C@@H](C4CCCCC4)N3C[C@@H]2C2CCCCC2)CC1	ATCC 32045			3.7 µg/mL
Cn1c2ccccc2c2nc3ccc(Br)cc3cc21	ATCC 90113			11 µg/mL
CCCCCOc1ccc(-c2cc(-c3ccc(C(=O)N[C@H]4C[C@@H](O)[C@@H](O)NC(=O)[C@@H]5[C@@H](O)[C@@H](C)CN5C(=O)[C@H]([C@H](O)CC(N)=O)NC(=O)[C@H]([C@H](O)[C@@H](O)c5ccc(O)c(OS(=O)(=O)O)c5)NC(=O)[C@@H]5C[C@@H](O)CN5C(=O)[C@H]([C@@H](C)O)NC4=O)cc3)no2)cc1	JEC21	broth dilution		>2 µg/mL
O/N=C/c1cccc[n+]1Cc1ccc(C[n+]2ccccc2/C=N/O)s1.[Cl-].[Cl-]		broth dilution		>20 µg/mL
CC1SC(c2ccccn2)N(C(C)C(=O)O)C1=O		broth dilution		43.16 µM
CCCCc1oc2ccccc2c1C(=O)c1cc(I)c(OCCN(CC)CC)c(I)c1	JEC21			<5 µM
C1CCC(C[C@H]2CN3C(=NC[C@H]3C3CCCCC3)N2CCC23CC4CC(CC(C4)C2)C3)CC1	ATCC 32045			2.6 µg/mL
O=C(O)CN1C(=O)CSC1c1ccccn1		broth dilution		78.61 µM
CCN1C2=NC[C@@H](CC3CCCCC3)N2C[C@@H]1Cc1ccccc1	ATCC 32045			37.7 µg/mL
C[n+]1c2ccccc2cc2[nH]c3c(Br)cccc3c21.[I-]	ATCC 90113	resazurin		>20 µg/mL
CC(=O)c1c(O)cc(O)c(C(C)=O)c1O				>20 µg/mL
COc1cccc(C(=O)Oc2c(OC)cc3ccnc4c3c2N(C)C=C4)c1				>15 µg/mL
NC(=O)c1cc[n+](CCCC[n+]2ccccc2/C=N/O)cc1.[Br-].[Br-]		broth dilution		>20 µg/mL
CCCCCc1ccc(C(=O)Oc2c(OC)cc3ccnc4c3c2N(C)C=C4)cc1				3 µg/mL
COc1ccc2c(c1)sc1cc3ccccc3[n+](C)c12	ATCC 90113	broth dilution		>20 µg/mL
CC(C)(C)C1CCC(CN2C3=NC[C@@H](CC4CCCCC4)N3C[C@H]2C2CCCCC2)CC1	ATCC 32045			2 µg/mL
O/N=C/c1ccc[n+](Cc2ccc(C[n+]3cccc(/C=N/O)c3)s2)c1.[Cl-].[Cl-]		broth dilution		>20 µg/mL
O=C(O)C(Cc1ccccc1)N1C(=O)CSC1c1ccccc1		broth dilution		24.01 µM
CC(C)(C)C1CCC(CN2C3=NC[C@H](CC4CCCCC4)N3C[C@H]2CC2CCCCC2)CC1	ATCC 32045			3.4 µg/mL
Cc1c(O)c(C=O)c(O)c(C=O)c1O				>20 µg/mL
CC(C)(C)C1CCC(CN2C3=NC[C@H](CC4CCCCC4)N3C[C@@H]2C2CCCCC2)CC1	ATCC 32045			2.3 µg/mL
CC(C(O)(Cn1cncn1)c1ccc(F)cc1F)S(C)(=O)=O	R717 (AZOLE-R)			3.5 µM
COc1cc2ccnc3c2c(c1OC(=O)c1cccc(C)c1)N(C)C=C3				15 µg/mL
Cn1c2ccccc2c2c1cc1cc(Br)ccc1[n+]2C	ATCC 90113			0.4 µg/mL
CC(C)CCc1c(O)c(C=O)c(O)c(C=O)c1O				>20 µg/mL
CC(C)CC(C(=O)O)N1C(=O)CSC1c1ccccc1		broth dilution		28.94 µM
COc1cc2ccnc3c2c(c1OC(=O)c1ccc(OC(F)(F)F)cc1)N(C)C=C3				6.5 µg/mL
COc1c(O)c2c(=O)cc(OC)c3c4c(OC)cc(=O)c5c(O)c(OC)c6c(c(c1CC(C)(O)C6C(C)=O)c23)c54				>100 µg/mL
CN(CC#CC#CC(C)(C)C)c1cccc2c1CCC(=O)N2	CY1057			>200 µg/mL

ECn: concentration that inhibits the pathogen or its effect by n%. Conditions beyond the fields shown may differ between rows.